Compound potency records, mixed from different reports. Data source: NIAID ChemDB in PubChem.

All rows: tests in culture; agent: Mycobacterium tuberculosis

An empty or dashed field is not shown.

structure	read by	setting	read-out	cell line	changes	tested at	strain	value
O=C(Cc1cccs1)N[C@@H]1C(=O)N2C(C(=O)[O-])=C(C[n+]3ccccc3)CS[C@H]12	resazurin	-	MBC	-	-	-	H37Rv	8 µg/mL
Cc1ccc2c(=O)n(-c3cccc([N+](=O)[O-])c3)c(=O)oc2c1	-	-	MIC	-	-	-	CNCTC MY331/88	8 µM
CNc1ccc2oc(C[C@@H]3OC4(CC[C@@H]3C)O[C@H](C(C)C(=O)c3ccc[nH]3)[C@H](C)C[C@H]4C)nc2c1C(=O)O	resazurin	-	MIC	-	-	-	H37Rv	1.25 µg/mL
CC1(C)CC(N=c2cc3n(-c4cc(Cl)cc(Cl)c4)c4ccccc4nc-3cc2Nc2cc(Cl)cc(Cl)c2)CC(C)(C)N1	-	inside macrophages	MIC	Macrophages	-	-	H37Rv	0.03 µg/mL
CO[C@@H]1C[C@@H](C[C@H]2CC[C@H](C)[C@H]([C@@H](C)C(=O)O)O2)O[C@]2(O[C@](C)([C@H]3CC[C@@](C)([C@@H]4O[C@@H]([C@H]5O[C@@](O)(CO)[C@H](C)C[C@@H]5C)C[C@@H]4C)O3)C[C@H]2C)[C@@H]1C	resazurin	-	MIC	-	-	-	H37Rv	1.25 µg/mL
COc1cc2c(cc1OC)C1=NN(C(=O)Nc3ccc(F)c(Cl)c3)C(c3ccc(F)cc3)C1C2	agar	-	EC50	-	-	-	INH resistant	12.5 µM
Cc1ccc(S(=O)(=O)c2ccc(Cl)cc2[N+](=O)[O-])c2c1CCCN2	resazurin	-	MIC bound	-	-	-	H37Rv	>6.25 µg/mL
CCCCCCCCNC1CC(=O)NC1=O	-	-	MIC	-	-	-	H37Ra	≤20 µg/mL
Cc1ccc2oc(=O)n(-c3ccc(C#N)cc3)c(=O)c2c1	-	-	MIC	-	-	-	CNCTC MY331/88	16 µM
Cc1ccc2c(c1)nc1cc(Nc3ccc(Cl)cc3)c(=NC3CCCCCCC3)cc-1n2-c1ccc(Cl)cc1	-	-	MIC	-	-	-	Kurono	0.1 µg/mL
S=C(S)NC1CCN(Cc2ccccc2)CC1	BACTEC	-	MIC	-	-	-	H37Rv	≥12.5 µg/mL
COc1c(O)c(OC)c2oc(-c3ccc(O)cc3)cc(=O)c2c1O	-	-	MIC	-	-	-	H37Ra	100 µg/mL
CN1CCSC1=[Se]	-	-	MIC	-	-	-	B814	100 µg/mL
O=C(CN1CCN(c2ccccc2)CC1)n1nnc2ccccc21	resazurin	-	inhibition	-	-	6.25 µg/mL	H37Rv	14%
CSC(SSC(C)(C)C)C(N)=O	-	-	MIC	-	-	-	H37Rv	500 µM
CN(C)CCC=C1c2ccccc2CCc2ccccc21	-	-	MIC	-	-	-	H37Ra	32 µg/mL
C[C@@H](O)[C@H]1C(=O)N2C(C(=O)O)=C(SCCN=CN)C[C@H]12	resazurin	-	MBC	-	-	-	H37Rv	>64 µg/mL
COc1ccc(OC)c(Cc2cnc3nc(N)nc(N)c3c2C)c1	resazurin	-	MIC bound	-	-	-	H37Rv	<6.25 µg/mL
Cc1ccc(-c2n[nH]c(=O)n2-n2c(C)ccc2C)cc1	-	-	MIC	-	-	-	9361	2.58 µg/mL
C[C@@]12CCC[C@@](C)(C(=O)O)[C@H]1CC[C@@]13C[C@H](CC[C@H]12)[C@@]1(CO1)C3	resazurin	-	MIC	-	-	-	-	100 µg/mL
CCOC(=O)c1cc(-c2ccc(C)cc2)n(C(C)C(=O)N=Nc2c(O)[nH]c3ccccc23)c1C	resazurin	-	inhibition	-	-	6.25 µg/mL	H37Rv (ATCC 27294)	0%
COc1ccc2oc(=O)n(-c3ccc(C)cc3)c(=O)c2c1	-	-	MIC	-	-	-	CNCTC MY331/88	62.5 µM
CC[n+]1c(C=Cc2coc3ccc(Cl)cc3c2=O)sc2ccccc21	-	-	MIC	-	-	-	H37Rv	125 µM
Cc1cc(C(=O)NNC(C)Cc2ccccc2)no1	BACTEC	-	MIC bound	-	-	-	H37Rv	>12.5 µg/mL
CN[C@@H]1[C@H](O[C@H]2[C@H](O[C@H]3[C@H](O)[C@@H](O)[C@H](N=C(N)N)[C@@H](O)[C@@H]3N=C(N)N)O[C@@H](C)[C@]2(O)C=O)O[C@@H](CO)[C@H](O)[C@H]1O	-	-	MIC	-	-	-	TN4728 (BN)	>2 µg/mL
Cc1ccc2occ(C(O)Cc3nc4ccccc4[nH]3)c(=O)c2c1	-	-	MIC	-	-	-	H37Rv	60 µM
CCOc1cc(/C=N/NC(=O)C(=O)N/N=C/c2ccc(O)c(OCC)c2)ccc1O	BACTEC	-	inhibition	-	-	12.5 µg/mL	H37Rv	10%
Cc1ccc2occ(C(O)Cc3nc4ccccc4s3)c(=O)c2c1	-	-	MIC	-	-	-	H37Rv	60 µM
CN1C(=O)C(=O)N(C)C1=[Se]	-	-	MIC	-	-	-	B814	10 µg/mL
CC[C@H]1OC(=O)[C@H](C)[C@@H](OC2C[C@@](C)(O)C(O)[C@H](C)O2)[C@H](C)[C@@H](OC2OC(C)C[C@H](N(C)C)C2O)[C@](C)(OC2CC(N(C)C)C(O)C(C)O2)C[C@@H](C)C(=O)[C@H](C)[C@@H](O)[C@]1(C)O	resazurin	-	MBC	-	-	-	H37Rv	>128 µg/mL
CCn1c(O)c(C(=O)Nc2cccs2)c(=O)n(CC)c1=S	-	-	MIC	VERO	-	-	H37Rv	12.5 µg/mL
CN(C)CCC(c1ccccc1)c1ccccn1	-	-	MIC	-	-	-	H37Ra	>256 µg/mL
O=c1c(C=Cc2sc3ccccc3[n+]2Cc2ccc(F)cc2)coc2ccccc12	-	-	MIC	-	-	-	H37Rv	250 µM
C/C(=C\CO)CCC[C@H](C)CCC[C@H](C)CCCC(C)C	-	-	MIC	-	-	-	H37Rv	32 µg/mL
CCOC(=O)c1cc(-c2ccc(Cl)cc2)n(C(C)C(=O)N/N=C/c2[nH]c(C(=O)OCC)c(C)c2C(=O)OCC)c1C	resazurin	-	inhibition	-	-	6.25 µg/mL	H37Rv (ATCC 27294)	68%
CN(C)CCC(c1ccc(Br)cc1)c1ccccn1	-	-	MIC	-	-	-	H37Ra	64 µg/mL
O=C1C(=O)N(c2ccccc2)C(=S)N1c1ccccc1	-	-	MIC	-	-	-	B814	100 µg/mL
CCCCCCCCCN1C(=O)C=CC1=O	-	-	MIC	-	-	-	Clinical isolate (isoniazid-resistant)	≤20 µg/mL
CN(C)CCOC(c1ccccc1)c1ccccc1	-	-	MIC	-	-	-	H37Ra	64 µg/mL
COc1cccc(OC)c1Nc1nc(-c2cccc([N+](=O)[O-])c2)cs1	agar	-	MIC	-	-	-	H37Rv	>12.5 µg/mL
CNC(=O)OCc1c(COC(=O)NC)c(C)n(-c2ccccc2)c1C	BACTEC	-	MIC bound	-	-	-	H37Rv	>12.5 µg/mL
CO[C@H]1/C=C/O[C@@]2(C)Oc3c(C)c(O)c4c(O)c(c(/C=N/N=C/N5CCCCC5)c(O)c4c3C2=O)NC(=O)/C(C)=C\C=C\[C@H](C)[C@H](O)[C@@H](C)[C@@H](O)[C@@H](C)[C@H](OC(C)=O)[C@@H]1C	-	-	MIC	-	-	-	7 strains	0.014 µg/mL
Cc1ccc(C(CCN(C)C)c2ccccc2)cc1	-	-	MIC	-	-	-	H37Ra	32 µg/mL
O=C1N[C@H](CO)C(=O)N[C@H]1CO	BACTEC	-	MIC bound	-	-	-	H37Rv	>12.5 µg/mL
C=CC1=C(C(=O)O)N2C(=O)C(NC(=O)/C(=N\OCC(=O)O)c3csc(N)n3)C2SC1	resazurin	-	MIC	-	-	-	H37Rv	32 µg/mL
CCOC(=O)c1c(C)[nH]c(/C=N/NC(=O)Cn2c(C)c(C(=O)OCC)c(C)c2-c2ccc(Cl)cc2)c1C	resazurin	-	EC50	-	-	-	H37Rv (ATCC 27294)	7.979 µg/mL
COc1ccc2nc3cc(Cl)ccc3c(Nc3cc(CN4CCCC4)c(O)c(CN4CCCC4)c3)c2n1	resazurin	-	MIC	-	pyrG V186G	-	88.7	5–10 µg/mL
CC1(C)CC(N=c2cc3n(-c4ccccc4Cl)c4ccccc4nc-3cc2Nc2ccccc2Cl)CC(C)(C)N1	-	inside macrophages	EC50	Macrophages	-	-	H37Rv	<0.005 µg/mL
CCOC(=O)c1c(C)c(-c2ccc(Cl)cc2)n(CC(=O)N/N=C/c2ccc([N+](=O)[O-])cc2O)c1C	resazurin	-	inhibition	-	-	6.25 µg/mL	H37Rv (ATCC 27294)	77%
Cc1ccc(S(=O)(=O)N/N=C2\CC/C(=N\NS(=O)(=O)c3ccc(C)cc3)C3CC=CCC23)cc1	BACTEC	-	inhibition	-	-	12.5 µg/mL	H37Rv	4%
COc1nc2ccc(Br)cc2c2c1C(C)(OCC(O)Cn1ccc(-c3ccc(Cl)c(Cl)c3)n1)c1ccccc1-2	BACTEC / radiometric	-	MIC	-	-	-	H37Rv	5 µM
O=c1c(C=Cc2sc3ccccc3[n+]2Cc2cccc(F)c2)coc2ccccc12	-	-	MIC	-	-	-	H37Rv	>500 µM
O=C(Nc1ccc(Nc2ccncc2)cc1)c1ccc(Nc2ccnc3ccc([N+](=O)[O-])cc23)cc1[N+](=O)[O-]	BACTEC	-	MIC bound	-	-	-	H37Rv	≤12.5 µg/mL
CCCCCCCCCN1C(=O)CC(Nc2ccc(N3CCCCC3)cc2)C1=O	-	-	MIC	-	-	-	Clinical isolate (isoniazid-resistant)	≤20 µg/mL
CC[C@@H](CO)NCCN[C@@H](CC)CO	resazurin	-	MIC	-	-	-	-	0.06 µg/mL
CO[C@H]1[C@@H](O)[C@@H](C)O[C@@H](OC2CCC3(C)C(CCC4C3C(O)CC3(C)C(C5=CC(=O)OC5)CCC43O)C2)[C@@H]1O	BACTEC	-	inhibition	-	-	12.5 µg/mL	H37Rv	-6%
COc1nc2ccc(Br)cc2c2c1C(C)(OC(=O)N(C)C)c1ccccc1-2	BACTEC / radiometric	-	MIC	-	-	-	H37Rv	14.63 µM
NC1NNC(=S)S1	BACTEC	-	MIC bound	-	-	-	H37Rv	>12.5 µg/mL
CC1(C)S[C@@H]2[C@H](NC(=O)[C@H](N)c3ccc(O)cc3)C(=O)N2[C@H]1C(=O)O	resazurin	-	MBC	-	-	-	H37Rv	64 µg/mL
C=C1C[C@@]23CC[C@H]4[C@@](C)(CCC[C@@]4(C)C(=O)O)[C@@H]2CC[C@H]1C3	resazurin	-	MIC	-	-	-	-	125 µg/mL
CN(C)c1ccc(/C=C2/C=Cc3ccccc32)c(F)c1	BACTEC	-	inhibition	-	-	12.5 µg/mL	H37Rv	27%
CC1(C)NC(=S)NC1=S	-	-	MIC	-	-	-	B814	>100 µg/mL
O=c1oc2ccc(Br)cc2c(=O)n1-c1ccc(C(F)(F)F)cc1	-	-	MIC	-	-	-	CNCTC MY331/88	1 µM
Cc1c(C(=O)CSc2nc3ccccc3c(=O)n2-c2ccccc2)c(=O)n(-c2ccccc2)n1C	BACTEC	-	inhibition	-	-	12.5 µg/mL	H37Rv	2%
NNC(=O)c1ccncc1	resazurin	-	MIC	-	dprE1 G387S	-	NTB1	0.025 µg/mL
COc1ccc(-c2csc(Nc3c(OC)cccc3OC)n2)cc1	agar	-	MIC	-	-	-	H37Rv	>12.5 µg/mL
CN(C)C(=S)SCN1C(=O)c2ccccc2C1=O	-	-	MIC	-	-	-	PAS-R	3.2 µg/mL
O=c1c(C=Cc2sc3ccccc3[n+]2Cc2ccccc2)coc2ccccc12	-	-	MIC	-	-	-	H37Rv	250 µM
CCCCCCCCCNC1CC(=O)N(CCCCCCCCC)C1=O	-	-	MIC	-	-	-	Clinical isolate (isoniazid-resistant)	≤20 µg/mL
CCCCN(CCCC)CCNc1ccc(C)c2sc3ccccc3c(=O)c12	BACTEC	-	inhibition	-	-	12.5 µg/mL	H37Rv	49%
CCOC(=O)c1cc(-c2ccc(Cl)cc2)n(CCC(=O)N/N=C/c2cccs2)c1C	resazurin	-	inhibition	-	-	6.25 µg/mL	H37Rv (ATCC 27294)	82%
O=c1oc2ccccc2c(=O)n1-c1ccc(Cl)cc1	-	-	MIC	-	-	-	CNCTC MY331/88	31 µM
CC[C@H](/C=C/[C@@H](C)[C@H]1CC[C@H]2[C@@H]3CC=C4C[C@@H](O)CC[C@]4(C)[C@H]3CC[C@]12C)C(C)C	-	-	MIC	-	-	-	H37Rv	32 µg/mL
O=c1oc2ccc(F)cc2c(=O)n1-c1ccccc1	-	-	MIC	-	-	-	CNCTC MY331/88	31 µM
O=C1C=C[C@@H](COC2OC(CO)C(O)C(O)C2O)O1	-	-	MIC	-	-	-	INH-r	3.1 µg/mL
O=c1oc2ccc(Cl)cc2c(=O)n1-c1ccccc1	-	-	MIC	-	-	-	CNCTC MY331/88	31 µM
CC(NC(=O)C(Cc1ccccc1)NC(=O)c1ccc[n+](Cc2ccccc2)c1)C(N)=O.[Br-]	BACTEC	-	MIC bound	-	-	-	H37Rv	>12.5 µg/mL
O=c1oc2ccc(Cl)cc2c(=O)n1-c1cccc(Cl)c1	-	-	MIC	-	-	-	CNCTC MY331/88	16 µM
Cc1ccc2occ(C=Cc3nc4ccccc4s3)c(=O)c2c1	-	-	MIC	-	-	-	H37Rv	250 µM
COC1=NS(=O)(=O)C2CCCCCCC2O1	resazurin	-	inhibition	-	-	6.25 µg/mL	H37Rv	20%
Cc1ccc2oc(=O)n(-c3ccccc3)c(=O)c2c1	-	-	MIC	-	-	-	CNCTC MY331/88	125 µM

For reference, 5 entries again:

structure,read by,setting,read-out,cell line,changes,tested at,strain,value
COc1ccc(OC)c(Cc2cnc3nc(N)nc(N)c3c2C)c1,resazurin,-,MIC bound,-,-,-,H37Rv,<6.25 µg/mL
O=c1oc2ccccc2c(=O)n1-c1ccc(Cl)cc1,-,-,MIC,-,-,-,CNCTC MY331/88,31 µM
Cc1ccc2c(c1)nc1cc(Nc3ccc(Cl)cc3)c(=NC3CCCCCCC3)cc-1n2-c1ccc(Cl)cc1,-,-,MIC,-,-,-,Kurono,0.1 µg/mL
Cc1ccc(C(CCN(C)C)c2ccccc2)cc1,-,-,MIC,-,-,-,H37Ra,32 µg/mL
CCOC(=O)c1cc(-c2ccc(C)cc2)n(C(C)C(=O)N=Nc2c(O)[nH]c3ccccc23)c1C,resazurin,-,inhibition,-,-,6.25 µg/mL,H37Rv (ATCC 27294),0%

a–b is a range or a potency band. Lines come from different laboratories, so protocols vary. ECn: concentration that inhibits the pathogen or its effect by n%. Inhibition is in % at the dose shown (toxicity tests: loss of growth or viability). MIC bound comes from a single tested concentration.